ChEMBL document CHEMBL5604063, “ASAP - DENV-2 NS2B-NS3 protease fluorescence dose response” (2024)
pIC50: −log10 of the molar value. This is a selection: effects in other tests are not listed, and their absence says nothing.

The chains behind the UniProt entries cited, without tags or fusion partners. Residues count along the entry.
UniProt P29990, 1346-1475 limits assumed: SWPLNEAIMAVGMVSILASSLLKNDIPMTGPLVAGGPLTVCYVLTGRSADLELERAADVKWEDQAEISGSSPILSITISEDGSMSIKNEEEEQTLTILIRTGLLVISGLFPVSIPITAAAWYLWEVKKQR
UniProt P29990, 1476-2093 limits assumed: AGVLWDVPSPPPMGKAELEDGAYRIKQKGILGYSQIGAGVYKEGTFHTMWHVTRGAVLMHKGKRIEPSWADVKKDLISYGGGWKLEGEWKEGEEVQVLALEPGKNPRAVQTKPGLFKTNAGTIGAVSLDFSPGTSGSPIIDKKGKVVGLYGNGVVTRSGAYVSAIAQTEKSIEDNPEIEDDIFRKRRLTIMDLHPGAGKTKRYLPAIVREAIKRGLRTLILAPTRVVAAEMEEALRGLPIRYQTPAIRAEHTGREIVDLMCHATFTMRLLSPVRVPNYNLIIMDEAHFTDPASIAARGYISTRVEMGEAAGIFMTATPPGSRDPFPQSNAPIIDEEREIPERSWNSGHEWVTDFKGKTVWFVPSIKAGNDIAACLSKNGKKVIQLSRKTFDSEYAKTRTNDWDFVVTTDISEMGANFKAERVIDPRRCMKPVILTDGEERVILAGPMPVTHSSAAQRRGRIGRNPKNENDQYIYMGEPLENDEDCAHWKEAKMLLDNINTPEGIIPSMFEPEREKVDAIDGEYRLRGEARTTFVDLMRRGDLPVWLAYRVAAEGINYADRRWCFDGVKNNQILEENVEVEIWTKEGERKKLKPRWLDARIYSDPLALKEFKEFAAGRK

Biological target: Genome polyprotein (dengue virus type 2, UniProt P29990)
Test: Functional biochemical assay to identify treatments for viral infectious disease that targets Dengue virus type 2 NS2B-NS3 protease. Utilizing a direct enzyme activity measurement method, reading the fluorescence intensity is used to characterize the relative potency of inhibitors as IC50. Synthetic construct has been made based on Dengue virus type 2 (strain Thailand/16681/1984) by Centre for Med

Question: With `c1ccc(NC2CCN(Cc3c[nH]c4ccccc34)CC2)cc1` as the compound, how does the pIC50 read?
Answer: < 4.00
